Results of unrelated studies side by side (data: NIAID ChemDB).

Common to all: tests in culture; organism: Staphylococcus aureus; measure: MIC

Lines come from different laboratories, so protocols vary.

SMILES	strain or isolate	value
N=Cc1cn(-c2ccc(N3C[C@H](COc4ccon4)OC3=O)cc2F)cn1	078 (oxford)	0.5 µg/mL
Cc1c(NC2CC2)c(F)cc2c(=O)c(C(=O)O)cn(-c3cc(N)c(F)cc3F)c12	W806 (methicillin-resistant)	0.25 µg/mL
CC[C@H]1OC(=O)[C@@](C)(F)C(=O)[C@H](C)[C@@H](O[C@@H]2O[C@H](C)C[C@H](N(C)C)[C@H]2O)[C@@]2(C)C[C@@H](C)C(=NC(C)=O)[C@H](C)[C@@H](OC/C(=N/OCc3ccc(-c4cccc(N)n4)s3)CO2)[C@]1(C)O	33591 (erythromycin methicillin-resistant)	64 µg/mL
N#Cc1ccn(-c2ccc(N3C[C@H](COc4ccon4)OC3=O)cc2F)c1	004 (methicillin quinolone-resistant)	0.5 µg/mL
CCCCOCCCNc1cc2c(cc1F)c(=O)c(C(=O)O)cn2C1CC1	ATCC 5278 (methicillin-resistant)	>100 µg/mL
CC[C@H]1OC(=O)[C@@](C)(F)C(=O)[C@H](C)[C@@H](O[C@@H]2O[C@H](C)C[C@H](N(C)C)[C@H]2O)[C@@]2(C)C[C@@H](C)C(=O)[C@H](C)[C@@H](OC/C(=N\OCc3ccc(-n4cccn4)nc3)CO2)[C@]1(C)O	33591 (erythromycin methicillin-resistant)	>64 µg/mL
CN1CCN(c2cc3c(cc2F)c(=O)c(C(=O)O)cn3C2CC2)CC1	ATCC 6538P	0.78 µg/mL
CC[C@H]1OC(=O)[C@H](C)C(=O)[C@H](C)[C@@H](O[C@@H]2O[C@H](C)C[C@H](N(C)C)[C@H]2O)[C@@]2(C)C[C@@H](C)/C(=N\C(=O)OC)[C@H](C)C(OC/C(=C\C=C\c3ccccc3)CO2)[C@]1(C)O	33591 (erythromycin methicillin-resistant)	64 µg/mL
Cc1c(N)c(F)cc2c(=O)c(C(=O)O)cn(-c3cc(N)c(F)cc3F)c12	W44 (methicillin-resistant)	1 µg/mL
O=C1O[C@@H](COc2ccon2)CN1c1ccc(N2CCC(O)CC2)c(F)c1	122 (novobiocin-resistant)	8 µg/mL
Cc1c(NC(C)C)c(F)cc2c(=O)c(C(=O)O)cn(-c3cc(N)c(F)cc3F)c12	209P	0.008 µg/mL
CC[C@H]1OC(=O)[C@@](C)(F)C(=O)[C@H](C)[C@@H](O[C@@H]2O[C@H](C)C[C@H](N(C)C)[C@H]2O)[C@@]2(C)C[C@@H](C)C(=NC(C)=O)[C@H](C)[C@@H](OC/C(=N\OCc3ccc4nc(N)sc4c3)CO2)[C@]1(C)O	29213 (erythromycin A-susceptible)	0.13 µg/mL
NCCCCCNc1cc2c(cc1F)c(=O)c(C(=O)O)cn2C1CC1	ATCC 5278 (methicillin-resistant)	>100 µg/mL
CC[C@H]1OC(=O)[C@@](C)(F)C(=O)[C@H](C)[C@@H](O[C@@H]2O[C@H](C)C[C@H](N(C)C)[C@H]2O)[C@@]2(C)C[C@@H](C)C(=NC(C)=O)[C@H](C)[C@@H](OC/C(=N\OCc3ccc(-c4cccc(N)n4)s3)CO2)[C@]1(C)O	29213 (erythromycin A-susceptible)	0.25 µg/mL
CC[C@H]1OC(=O)[C@H](C)C(=O)[C@H](C)[C@@H](O[C@@H]2O[C@H](C)C[C@H](N(C)C)[C@H]2O)[C@@]2(C)C[C@@H](C)C(=NC(C)=O)[C@H](C)C(OC/C(=C\c3cnc4ccccc4c3)CO2)[C@]1(C)O	29213 (erythromycin-susceptible)	0.5 µg/mL
NCCCCCCNc1cc2c(cc1F)c(=O)c(C(=O)O)cn2C1CC1	ATCC 5278 (methicillin-resistant)	>100 µg/mL
Cc1cn(-c2ccc(N3C[C@H](CNc4ccon4)OC3=O)cc2F)cn1	078 (oxford)	0.13 µg/mL
NCCNc1cc2c(cc1F)c(=O)c(C(=O)O)cn2C1CC1	ATCC 5278 (methicillin-resistant)	25 µg/mL
CC[C@H]1OC(=O)[C@H](C)C(=O)[C@H](C)[C@@H](O[C@@H]2O[C@H](C)C[C@H](N(C)C)[C@H]2O)[C@@]2(C)C[C@@H](C)C(=NC(=O)CN)[C@H](C)C(OC/C(=C\C=C\c3ccccc3)CO2)[C@]1(C)O	33591 (erythromycin methicillin-resistant)	32 µg/mL
CC1(C)CC(CNc2cc3c(cc2F)c(=O)c(C(=O)O)cn3C2CC2)CC(C)(C)N1	ATCC 6538P	>100 µg/mL
CC[C@H]1OC(=O)[C@H](C)C(=O)[C@H](C)[C@@H](O[C@@H]2O[C@H](C)C[C@H](N(C)C)[C@H]2O)[C@@]2(C)C[C@@H](C)C(=NC(C)=O)[C@H](C)C(OC/C(=C\C#Cc3ccc(N)cc3)CO2)[C@]1(C)O	33591 (erythromycin methicillin-resistant)	>64 µg/mL
CC[C@H]1OC(=O)[C@@](C)(F)C(=O)[C@H](C)[C@@H](O[C@@H]2O[C@H](C)C[C@H](N(C)C)[C@H]2O)[C@@]2(C)C[C@@H](C)C(=NC(C)=O)[C@H](C)[C@@H](OC/C(=N\OCC#Cc3cccc(N)n3)CO2)[C@]1(C)O	29213 (erythromycin A-susceptible)	0.13 µg/mL

3 of the rows above, restated:

SMILES	strain or isolate	value
CC[C@H]1OC(=O)[C@@](C)(F)C(=O)[C@H](C)[C@@H](O[C@@H]2O[C@H](C)C[C@H](N(C)C)[C@H]2O)[C@@]2(C)C[C@@H](C)C(=NC(C)=O)[C@H](C)[C@@H](OC/C(=N\OCc3ccc(-c4cccc(N)n4)s3)CO2)[C@]1(C)O	29213 (erythromycin A-susceptible)	0.25 µg/mL
O=C1O[C@@H](COc2ccon2)CN1c1ccc(N2CCC(O)CC2)c(F)c1	122 (novobiocin-resistant)	8 µg/mL
CC[C@H]1OC(=O)[C@H](C)C(=O)[C@H](C)[C@@H](O[C@@H]2O[C@H](C)C[C@H](N(C)C)[C@H]2O)[C@@]2(C)C[C@@H](C)C(=NC(=O)CN)[C@H](C)C(OC/C(=C\C=C\c3ccccc3)CO2)[C@]1(C)O	33591 (erythromycin methicillin-resistant)	32 µg/mL